# Reference: patent US20100069468
# Test system: muscle-type nicotinic acetylcholine receptor
# Test: activity in cells
# Conditions: apparent KI; whole-cell current, cell-flow, 100 uM carbamoylcholine, 22 C, -60 mV, pH 7.4; protein on the cell surface; protein details: expressed on BC3H1 cells
sequence,measurement,value
UUUACCGUAAGGCCUGUCUUCGUUUGACAGCGGCUUGUUGACCCUCACACUUUGUACCUGCUGCCAA [B55],pKi,5.92

# pKi: −log10 of the molar value. The exact form of at least one protein or probe is not confirmed. Where cells or extracts were used, other partners may take part.
